In the supplement of paper PMC9931576:
Human monoclonal antibodies against the spike receptor-binding domain (heavy:light variable regions). IC50 against pseudoviruses bearing the spike of naturally observed variants; lower = stronger; >10 µg/ml means not reached at the top dose. No active / inactive call. The stated detection limit is 0.0005 µg/ml; values near or below 0.001 µg/ml lie at the floor of the assay.

B1: BD58-0512 (protein)
chain 1: QVQLQESGPGLVKPSETLSLTCTVSGDSFSNYYWSWIRQPAGKGLEWIGRIYTSGSTNYNPSLKSRVTMSIDTSKNQFSLRLRSVTAADTAVYYCARVGVATDYWGQGTLVTVSS
chain 2: DIQMTQSPSTLSAFVGDRVTITCRASQSISTWLAWYQQKPGKVPKLLIYKASSLESGVPSRFSGTGSGTEFTLTISSLQPDDFATYYCQQYNSYSETFGQGTKVEIK
B2: BD58-0499 (protein)
chain 1: QVQLQESGPGLVKPSETLSLTCTVSGGSVISDGYHWSWVRQAPGKGLEWIGYIYYSGSTKYNPSLKSRVTISVDTSRNQFSLKLSSVTAADTAVYYCARDRGPYSSGWYAGEFEYWGQGTLVTVSS
chain 2: EIVLTQSPATLSLSPGERATLSCRASQSVSSYLAWYQQKPGQAPRLLIYDASNRATGIPARFSGSGSGTDFTLTISSLEPEDFAVYYCQQRSNWLITFGPGTKVDIK
B3: BD58-0502 (protein)
chain 1: EVQLVESGGGLVQPGGSLRLSCAASEFAFSYFEMNWVRQAPGKGLEWVSYISNTGSTIYYADSVKGRFIISRDNAKNSLYLQMNSLRAEDTAVYYCARDLSYYDSTPLYAFDIWGQGTMVTVSS
chain 2: DIQMTQSPSSLSASVGDRVTITCRASQSISIHLNWYQQKPGRAPKLLIYAASSLQSGVPSRFSGSGSGTDFTLTISSLQPEDFATYYCQQSSRTPPEWTFGQGTKVEMK
B4: BD58-0555 (protein)
chain 1: EVQLVKSGGGLIQPGGSLRLSCAASGLIVSRNYMSWVRQAPGKGLEWVSVIYSGGSTYYADSVEGRFTVSRDNSKNRLYLEMNSLRAEDTAVYYCARDRPAGLMDVWGQGTTVTVSS
chain 2: DIQMTQSPSSLSSSVGDRVTITCQASQDIINNLNWYQQKPGKAPKLLIYDASNLETGVPSRFSGSGSGTDFTFTISSLQPEDIATYYCQQYDNLPFTFGPGTKLDIK
B5: BD56-285 (protein)
chain 1: QVQLVQSGAEVKKPGASVKVSCKASGYTFTSYGISWVRQAPGQGLEWMGWISASNGNTKYAQKLQGRVTMTTDTPTSTAYMELRSLRSDDTAVYYCAREIWGIVVVPAAMTGLNWFDPWGQGTLVTVSS
chain 2: QSVLTQPPSVSGAPGQRVTISCTGSSSNIGASYDVHWYQQLPGTAPKLLIYGNSNRPSGVPDRFSGSKSGTSASLAITGLQAEDEADYYCQSYDNSLSGPVVFGGGTKLTVL
B6: BD58-0503 (protein)
chain 1: EVQLVESGGGLVQPGGSLRLSCAASGFTFSSYSMNWVRQAPGKGLEWVSYISSSSSTIYYADSVKGRFTISRDNAKNSLYLQMNSLRDDDTAVYYCARVGPRHPLYYYDTLRQPFDYWGQGTLVTVSS
chain 2: DIQMTQSPSSLSASVGDRVTITCQASQDISIFLNWYQQKPGRAPKLLIYDASNLETGVPSRFSGSGSGTDFTFTISSLQPEDMAIYYCQQYDTLYTFGQGTKLEIK
B7: BD58-0551 (protein)
chain 1: EVQLVESGGGLVRPGGSLRLSCAASGFTFSSYSMNWVRQAPGKGLEWVSSITSTSSYIFHADSVKGRFTLSRDNAKNSMYLQMNNLRAEDTAVYYCARGPYYDFWSSYRNIDYWGQGILVTVSS
chain 2: DIQMTQSPSTVSASVGDRVTITCRASQGISNWLAWYQQKPGKAPKLLIYAASRLQSGVPSRFSGSGSGADFTLTISSLQPEDFAIYYCQQTNSFPLTFGGGTRVEIK
B8: BD58-0521 (protein)
chain 1: EVQLVQSGSVVKKPGESLKISCQGSGYNFNDDWIGWVRQTPGKGLEWVGMIYPDDSDTRYNPSFLGQVTLSVDKSISTAHLHWSSLKTSDTAKYFCARHGVVDRETHSLPDFWGPGTLVTVSS
chain 2: EVVMTQSPATLSVSPGERATLSCRASQNVNSRLAWFQQRPGQAPRLLIYGASTRATGVPVRFTGSGSGTEFTLTIDGLQSEDYAFYFCLQYLHWRTFGPGTKVEV
B9: BD58-0534 (protein)
chain 1: EVQLVESGGGVVRPGGSLRLSCAASGFTFDDHGMSWVRQAPGKGLEWVSGINWNGDSTAYADSVKGRFTISRDNTKNSLYLQMNSLRAEDTALYHCARGYYYDSTGYPHPGYYGMDVWGQGTTVTVSS
chain 2: SYELTQPPSVSVSPGQTARITCSGDALPNQYSYWYQQKPGQAPVVLIYKDSERPSGIPERFSGSSSGTTVTLTISGVQAEDEADYYCQSADSSGTIGVFGGGTKLTVL
B10: BD58-0518 (protein)
chain 1: QLQLQESGPGLVKPSQTLSLTCTVSGGSISSGGYYWSWIRQHPGKGLEWIGYIHYSGSTYYNPSLKSRVTISVDTSKNHFSLKLSSVTAADTAVYYCAREISTMVRGEPNDAFDIWGQGTMVTVSS
chain 2: QSALTQPASVSGSPGQSITISCTGTSSDVGTYNLVSWYQQFPGKAPKLMIYEVSERPSGISNRFSGSKSGTTASLTISGLQAEDEADYYCCSYATGRLFGGGTKLTVL

Tests used:
Experiment in all cases: pseudovirus neutralization IC50; higher = weaker neutralization
[1] = biological target: SARS-CoV-2 Omicron BA.1 spike pseudovirus
Method: (§1)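 Single-round VSV luciferase pseudovirus mixed with antibody dilutions for 1 h and put on Huh-7 cells for about a day; IC50 from the dose curve.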

[2] = biological target: SARS-CoV-2 Omicron BA.2 spike pseudovirus
Method: as §1

[3] = biological target: SARS-CoV-2 Omicron BA.2.75 spike pseudovirus
Method: as §1

[4] = biological target: SARS-CoV-2 Omicron BA.2.75.2 spike pseudovirus
Method: as §1

[5] = biological target: SARS-CoV-2 Omicron BA.5 spike pseudovirus
Method: as §1

[6] = biological target: SARS-CoV-2 Omicron BM.1.1.1 spike pseudovirus
Method: as §1

[7] = biological target: SARS-CoV-2 Omicron BQ.1.1 spike pseudovirus
Method: as §1

[8] = biological target: SARS-CoV-2 Omicron BR.2 spike pseudovirus
Method: as §1

[9] = biological target: SARS-CoV-2 Omicron CA.1 spike pseudovirus
Method: as §1

[10] = biological target: SARS-CoV-2 Omicron XBB spike pseudovirus
Method: as §1

[11] = biological target: SARS-CoV-2 early D614G spike pseudovirus
Method: as §1

Row | Binder | pseudovirus neutralization IC50 [1] [µg/mL] | pseudovirus neutralization IC50 [2] [µg/mL] | pseudovirus neutralization IC50 [3] [µg/mL] | pseudovirus neutralization IC50 [4] [µg/mL] | pseudovirus neutralization IC50 [5] [µg/mL] | pseudovirus neutralization IC50 [6] [µg/mL] | pseudovirus neutralization IC50 [7] [µg/mL] | pseudovirus neutralization IC50 [8] [µg/mL] | pseudovirus neutralization IC50 [9] [µg/mL] | pseudovirus neutralization IC50 [10] [µg/mL] | pseudovirus neutralization IC50 [11] [µg/mL]
1 | B1 | 0.00174 | 0.00206 | 0.00856 | > 10 | > 10 | > 10 | > 10 | > 10 | > 10 | > 10 | > 10
2 | B2 | > 10 | 0.00449 | 0.247 | 0.254 | 0.141 | 0.485 | 0.54 | 0.583 | 0.379 | 0.412 | > 10
3 | B3 | 0.232 | 0.069 | 0.242 | 0.544 | 0.138 | > 10 | 0.306 | 0.325 | 0.214 | > 10 | > 10
4 | B4 | 0.0299 | 0.0193 | > 10 | > 10 | 0.193 | > 10 | > 10 | > 10 | > 10 | > 10 | > 10
5 | B5 | 0.0979 | 2 | > 10 | > 10 | > 10 | > 10 | > 10 | > 10 | > 10 | > 10 | > 10
6 | B6 | 0.00178 | 0.000967 | 0.511 | > 10 | > 10 | > 10 | > 10 | > 10 | > 10 | > 10 | > 10
7 | B7 | > 10 | 0.48 | 0.0556 | 0.115 | > 10 | 0.125 | > 10 | 0.0504 | 0.129 | > 10 | > 10
8 | B8 | 1.75 | 0.0116 | 0.0276 | > 10 | 0.0254 | > 10 | > 10 | > 10 | > 10 | > 10 | > 10
9 | B9 | > 10 | 0.157 | > 10 | > 10 | > 10 | > 10 | > 10 | > 10 | > 10 | > 10 | > 10
10 | B10 | 1.57 | 0.00146 | > 10 | > 10 | > 10 | > 10 | > 10 | > 10 | > 10 | > 10 | > 10
